Data source: PubChem BioAssay AID1259414 (Drosophila RNAi Screening Center, 2018)
Purpose: 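Fly genes that alter Wolbachia amount inside host cells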 (primary screen). System: Drosophila JW18 cells infected with Wolbachia. Reagent: long dsRNA against Drosophila genes, 0.25 µg dsRNA per well of a 384-well plate. Time to read-out: 5 days. Challenge: cells persistently infected with Wolbachia before knock-down; no added drug. Measurement: 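Automated imaging of bacterial rRNA staining divided by host cell count, reported as plate-normalised robust z-score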. Direction: Wolbachia per cell robust z: higher = more Wolbachia per host cell than the plate typical. Active means: 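Hit when robust z is 1.5 or more, or -1.5 or less, in at least two of three replicates; excludes dsRNAs with several or no targets, genes not expressed in JW18 and well A1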.
The deposit covers about 24,000 reagents; shown is an unselected part of those that have a named target and a result. Of all reagents, about 1,210 (5%) got an active call. 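Inactive calls also include excluded dsRNAs with several or no targets, genes unexpressed in JW18, and well A1, regardless of score.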 The numbers tell different reagents against one gene apart. Names joined by + are all predicted targets of the reagent. No sequences are given here.

Target gene | reagent no. | Wolbachia per cell robust z, rep 1 | Wolbachia per cell robust z, rep 2 | Wolbachia per cell robust z, rep 3 | outcome
CG7542 | 1 | 0.0389 | 1.48 | 0.99 | inactive
Nep5 (Neprilysin 5) | 1 | -0.0401 | 1.73 | -0.956 | inactive
CG31342 | 1 | 0.296 | 0.137 | -0.157 | inactive
CG31342 | 2 | -0.762 | -0.154 | 0.141 | inactive
CheB98a (Chemosensory protein A 98a) | 1 | -0.482 | 0.172 | -0.785 | inactive
CheB98a (Chemosensory protein A 98a) | 2 | -2.28 | 0.31 | 0.544 | inactive
CG32032 | 1 | 1.06 | 0.958 | 1.09 | inactive
Tmem214 (Transmembrane protein 214) | 1 | -0.134 | -3.42 | 1.15 | inactive
Tmem214 (Transmembrane protein 214) | 2 | -1.08 | 0.13 | 0.904 | inactive
Tmem214 (Transmembrane protein 214) | 3 | -0.691 | -0.119 | -0.615 | inactive
jus (julius seizure) | 1 | 0.453 | 0.0909 | -3.72 | inactive
jus (julius seizure) | 2 | -0.0693 | 0.185 | -1.12 | inactive
CG17199 | 1 | 1.04 | 1.19 | -0.37 | inactive
CG5854 | 1 | 0.481 | 0.547 | 0.909 | inactive
CG5854 | 2 | -5.5 | -1.19 | -0.462 | inactive
dpr9 (defective proboscis extension response 9) | 1 | 0.705 | 1.23 | 0.774 | inactive
dpr9 (defective proboscis extension response 9) | 2 | -4.54 | 0.719 | -0.719 | inactive
dpr9 (defective proboscis extension response 9) | 3 | 1.34 | -0.195 | 0.406 | inactive
dpr9 (defective proboscis extension response 9) | 4 | 0.703 | 0.298 | -0.309 | inactive
CG11629 | 1 | 0.61 | 0.228 | 1.02 | inactive
BckdhB (Branched chain keto acid dehydrogenase E1 subunit beta) | 1 | -2.5 | 1.12 | -0.259 | inactive
P5CDh2 (delta-1-Pyrroline-5-carboxylate dehydrogenase 2) | 1 | -0.29 | 1.09 | -0.301 | inactive
futsch | 1 | 0.969 | 0.755 | -0.244 | inactive
futsch | 2 | -0.911 | -4.63 | -0.697 | inactive
futsch | 3 | 0.189 | -0.956 | 0.617 | inactive
futsch | 4 | 0.26 | 0.577 | 0.226 | inactive
futsch | 5 | 0.66 | -0.215 | 0.389 | inactive
unc-13 | 1 | -0.944 | 0.191 | -5.46 | inactive
unc-13 | 2 | 0.622 | -0.205 | -1.03 | inactive
unc-13 | 3 | -2.04 | 1.86 | -0.497 | inactive
unc-13 | 4 | -2.03 | -1.57 | -0.651 | active
Etf-QO (Electron transfer flavoprotein-ubiquinone oxidoreductase) | 1 | 0.856 | 0.842 | 0.644 | inactive
CG6178 | 1 | 0.477 | -0.231 | 0.421 | inactive
CG11807 | 1 | 0.762 | 0.475 | 0.0892 | inactive
l(3)L1231 (lethal (3) L1231) | 1 | 0.157 | 0.829 | 0.991 | inactive
CCAP (Crustacean cardioactive peptide) | 1 | -1.24 | -1.99 | 0.422 | inactive
Cngl (Cyclic nucleotide-gated ion channel-like) | 1 | -5.54 | 0.815 | -0.106 | inactive
Cngl (Cyclic nucleotide-gated ion channel-like) | 2 | 1.8 | 2.49 | 2.12 | inactive
Cngl (Cyclic nucleotide-gated ion channel-like) | 3 | -0.12 | 0.314 | 0.0181 | inactive
Cngl (Cyclic nucleotide-gated ion channel-like) | 4 | 0.13 | 0.472 | -0.748 | inactive
bbx + waw | 1 | 0.324 | -1.68 | -1.98 | inactive
bbx + waw | 2 | -6.38 | -2.25 | -1.02 | inactive
bbx + waw | 3 | 0.105 | 0.115 | 0.159 | inactive

A run of entries taken from the entries so far, as a working copy:
Target gene | reagent no. | Wolbachia per cell robust z, rep 1 | Wolbachia per cell robust z, rep 2 | Wolbachia per cell robust z, rep 3 | outcome
dpr9 (defective proboscis extension response 9) | 3 | 1.34 | -0.195 | 0.406 | inactive
dpr9 (defective proboscis extension response 9) | 4 | 0.703 | 0.298 | -0.309 | inactive
CG11629 | 1 | 0.61 | 0.228 | 1.02 | inactive
BckdhB (Branched chain keto acid dehydrogenase E1 subunit beta) | 1 | -2.5 | 1.12 | -0.259 | inactive
P5CDh2 (delta-1-Pyrroline-5-carboxylate dehydrogenase 2) | 1 | -0.29 | 1.09 | -0.301 | inactive
futsch | 1 | 0.969 | 0.755 | -0.244 | inactive
futsch | 2 | -0.911 | -4.63 | -0.697 | inactive
futsch | 3 | 0.189 | -0.956 | 0.617 | inactive
futsch | 4 | 0.26 | 0.577 | 0.226 | inactive
futsch | 5 | 0.66 | -0.215 | 0.389 | inactive
unc-13 | 1 | -0.944 | 0.191 | -5.46 | inactive

The listing continues:
Target gene | reagent no. | Wolbachia per cell robust z, rep 1 | Wolbachia per cell robust z, rep 2 | Wolbachia per cell robust z, rep 3 | outcome
CG14300 | 1 | -0.527 | 0.81 | -0.00407 | inactive
CG10512 | 1 | 0.197 | -0.701 | -0.262 | inactive
CG10512 | 2 | 1.46 | 1.27 | 0.709 | inactive
Rrp6 | 1 | 0.414 | 1.01 | 1.33 | inactive
asRNA:CR42742 + CG9897 | 1 | 1.21 | 0.571 | 0.249 | inactive
CG4836 | 1 | -0.118 | 0.576 | -7.16 | inactive
CG4836 | 2 | 0.336 | 0.56 | 0.316 | inactive
CG4836 | 3 | -0.908 | -0.405 | -0.754 | inactive
NiPp1 (Nuclear inhibitor of Protein phosphatase 1) | 1 | -1.43 | -0.685 | -0.00273 | inactive
NiPp1 (Nuclear inhibitor of Protein phosphatase 1) | 2 | -1.22 | -0.291 | -1.74 | inactive
CG10324 | 1 | 0.0448 | 1.81 | 0.724 | inactive
CG43335 | 1 | -0.855 | 0.845 | -0.294 | inactive
CG43335 | 2 | -0.578 | 0.435 | -0.057 | inactive
Chchd3 (Coiled-coil-helix-coiled-coil-helix domain containing 3) | 1 | 0.797 | 0.888 | 1.42 | inactive
Chchd3 (Coiled-coil-helix-coiled-coil-helix domain containing 3) | 2 | 0.198 | 0.994 | 0.391 | inactive
CG7856 | 1 | -0.152 | -1.48 | -1.2 | inactive
Cyp6d4 (Cytochrome P450 6d4) | 1 | 0.685 | 2.1 | 0.886 | inactive
Cyp6d4 (Cytochrome P450 6d4) | 2 | -0.0787 | 0.194 | 0.219 | inactive
Prestin | 1 | 1.6 | 0.436 | 1.17 | inactive
CG12688 (retired record) | 1 | 0.918 | -0.0924 | 0.757 | inactive
CG12688 (retired record) | 2 | 0.333 | -1.84 | -0.000151 | inactive
Myo28B1 (Myosin 28B1) | 1 | 0.817 | -0.112 | -2.57 | inactive
Myo28B1 (Myosin 28B1) | 2 | -0.736 | 0.756 | 1.27 | inactive
Mettl2 (Methyltransferase like 2) | 1 | 1.13 | 0.867 | -0.936 | inactive
Mettl2 (Methyltransferase like 2) | 2 | -1.2 | 0.631 | 0.818 | inactive
